Anti-infective test results gathered from many reports (values: NIAID ChemDB through PubChem).

All rows: growth or infection tests; agent: Mycobacterium tuberculosis

Blank or dashed fields: not listed here.

SMILES	read-out	strain	changes	tested at	conditions	cells	read by	value
CCOC(=O)c1c(N)sc2sc(-c3ccc(C(C)C)cc3)cc12	MIC	MDR-TB			multidrug-resistant			2.3 µM
CCOc1ccc(NC(=O)C(N=Nc2ccc(S(=O)(=O)Nc3nnc(C)s3)cc2)C(C)=O)cc1	MIC bound	H37Rv					BACTEC	>12.5 µg/mL
CN1CCN(c2cc3c(cc2F)c(=O)c(C(=O)O)cn3-c2ccc(F)cc2F)CC1c1ccccc1	MIC	ATCC35801						6.34 µM
C[C@]1(COc2ccc(-c3cc(COc4ccc(C(F)(F)F)cc4)on3)cc2)Cn2cc([N+](=O)[O-])nc2O1	MIC	H37Rv					broth dilution / resazurin	0.51 µM
C/C=C(\C)c1cc(=O)c2c(C)cc3c(c2o1)[C@](OC)(OC(C)=O)c1c(O)c([C@H]2C[C@](C)(N(C)C)[C@H](OC(C)=O)[C@H](C)O2)cc([C@H]2C[C@@H](N(C)C)[C@H](OC(C)=O)[C@@H](C)O2)c1C3=O	MIC bound	H37Rv					BACTEC	>12.8 µg/mL
O=C(/C=C/c1ccccc1)Nc1cccc(CN2CCOCC2)c1	MIC	103471						8 µg/mL
COC(=O)NC[C@H]1CN(c2cc(F)c(N3C[C@@H]4OC(=O)N[C@@H]4C3)c(F)c2)C(=O)O1	MIC100	H37Rv					resazurin	1.25 µM
CCOC(=O)c1c(N)sc2sc(-c3ccc(C)cc3)cc12	MIC	MDR-TB			multidrug-resistant			4.9 µM
Cc1cccc(C)c1N=Nc1sc(N)nc1-c1ccccc1	inhibition	H37Rv		6.25 µg/mL			BACTEC	36%
CCCCS(=O)(=O)Nc1ccc2[nH]c(C(=O)OCC)c(C)c2c1	MIC90	DRM167 8x3	I145T DG167-resistant				resazurin	6.25 µM
Cc1ncc([N+](=O)[O-])n1CCO	EC50						broth dilution	17.2 µg/mL
COc1ccc(/C=C2/SC(c3ccc(OC)cc3)N(C(=O)NCCCN3c4ccccc4Sc4ccccc43)C2=O)cc1	inhibition	H37Rv		50 µg/mL			agar	60%
O=C1C=Cc2ccccc2/C1=C/c1nc(-c2ccccc2)oc1O	MIC bound	H37Rv					BACTEC	>12.5 µg/mL
O=C(CSc1nnc(-c2ccc([N+](=O)[O-])s2)s1)OCc1ccccc1	inhibition	H37Rv		6.25 µg/mL			resazurin	99%
O=C(/C=C/c1ccccc1)Nc1ccc(Cn2ccnc2)cc1	MIC	103471						>16 µg/mL
CCCCS(=O)(=O)Nc1ccc2[nH]c(C(=O)NCc3ccccc3C)c(C)c2c1	MIC90	H37Rv					resazurin	100 µM
CCNC(=O)NNc1ncnc2c1c(-c1ccc(Cl)cc1)cn2-c1ccc(C)cc1	MIC bound	H37Rv					BACTEC	≤12.5 µg/mL
Cc1c(C(=O)c2ccc(-c3ccccc3)cc2)oc2cc3occ(C=C4C(=O)NC(=O)NC4=O)c(=O)c3cc12	EC90	H37Rv					resazurin	>100 µg/mL
Cc1c(C#N)[nH]c2ccc(NS(=O)(=O)CCCC(F)(F)F)cc12	MIC90	H37Rv					resazurin	0.78 µM
O=C(O)c1ccc(C(=O)O)nn1	inhibition	H37Rv		12.5 µg/mL			BACTEC	16%
COc1ccccc1OCCNC(=O)c1cc([N+](=O)[O-])cc(C(F)(F)F)c1	MIC90	H37Rv					resazurin	2 µg/mL
C[C@@H]1OC(O[C@H]2C(O[C@H]3CC[C@@]4(C)C(CC[C@]5(C)C4CC=C4C6CC(C)(C)CC[C@]6(C(=O)O[C@@H]6O[C@H](CO[C@@H]7O[C@H](CO)[C@@H](OC8OC[C@H](O)[C@H](O)[C@H]8O)[C@H](O)[C@H]7O)[C@@H](O)[C@H](O)[C@H]6O)CC[C@]45C)[C@]3(C)CO)OC[C@H](O)[C@@H]2O)[C@H](O)[C@H](OO[C@@H]2O[C@H](CO)[C@H](O)[C@H]2O)[C@H]1O	MIC	H37Rv						>1000 µg/mL
Cc1c(C(=O)c2ccccc2)oc2cc3occ(C=C4C(=O)NC(=S)NC4=O)c(=O)c3cc12	EC90	H37Rv					resazurin	>100 µg/mL
COc1cccc2c1C(=O)c1c(O)c3c(c(O)c1C2=O)C[C@@](O)(/C(C)=N/NC(=O)c1ccc(Cl)cc1)C[C@H]3O[C@H]1C[C@H](N)[C@H](O)[C@H](C)O1	MIC	PZA-R						6.3 µg/mL
O=C(Nc1ccc(Cn2ccnc2)cc1)c1ccc(Cl)cc1	MIC	103471						>16 µg/mL
O=C(/N=C/c1ccccc1)NCCCN1c2ccccc2Sc2ccccc21	inhibition	H37Rv		25 µg/mL			agar	18%
CCOC(=O)c1c(N)sc2sc(-c3ccccc3)cc12	MIC	MDR-TB			multidrug-resistant			41.2 µM
CCCCCCOc1ccc2c(c1)-c1ccccc1C2N1CCN(C(=O)c2ccccc2)CC1	MIC	H37Rv					broth dilution	>22 µM
CCCOC(=O)CSc1nnc(-c2ccc([N+](=O)[O-])s2)s1	MIC	H37Rv					resazurin	0.39 µg/mL
N#Cc1c(N)sc2sc(-c3ccc(Cl)cc3)cc12	MIC	H37Rv						43 µM
O=C(Oc1ccc(Cl)cc1C(=O)Nc1ccc(C(F)(F)F)cc1)c1ccccc1	MIC	Praha 1			21 d		broth dilution	0.5 µM
CCN(CC)CCN1CC(=O)N2CCCCN2C(=O)C1.O=C(O)C(=O)O	inhibition	H37Rv		12.5 µg/mL			BACTEC	-5%
Cc1ccc(-c2cc3c(C#N)c(N)sc3s2)cc1	MIC	H37Rv						23.1 µM
Cn1nc(-c2ccc(S(=O)(=O)F)cc2)s/c1=N\NC(=O)c1ccccc1	MIC bound	H37Rv					BACTEC	>12.5 µg/mL
CC(=O)NC[C@H]1CN(c2cc(F)c(N3CC4CCSCCC4C3)c(F)c2)C(=O)O1	MIC100	H37Rv					resazurin	0.62–1.25 µM
CO[C@H]1/C=C/O[C@@]2(C)Oc3c(C)c(O)c4c(=O)c(c5oc6cc(N7CCN(CC(C)C)CC7)cc(=O)c6nc5c4c3=C2O)NC(=O)/C(C)=C\C=C\[C@H](C)[C@H](O)[C@@H](C)[C@@H](O)[C@@H](C)[C@H](OC(C)=O)[C@@H]1C	MBC	H37Rv						0.15–0.6 µg/mL
CC1(C)Nc2cccc3c(N=Nc4ccc(N=Nc5ccccc5)c5ccccc45)ccc(c23)N1	MIC	H37Rv				VERO		2 µg/mL
O=C(NCCCN1c2ccccc2Sc2ccccc21)N1C(=O)/C(=C\c2ccccc2Br)SC1c1ccccc1Br	inhibition	H37Rv		25 µg/mL			agar	29%
C[C@]1(COc2ccc(-n3cc(COc4ccc(F)cc4)nn3)cc2)Cn2cc([N+](=O)[O-])nc2O1	MIC	ss18b non-replicating phase					broth dilution / resazurin	8.6 µM
CC(C)(C)n1cc(C(=O)O)c(=O)c2cc(F)c(N3CCN(C(=O)c4ccco4)CC3)cc21	MIC	ATCC35801						7.09 µM
COc1c(N2CCNC(C)C2)c(F)cc2c(=O)c(C(=O)O)cn(C3CC3)c12	MIC	ss18b non-replicating phase					broth dilution / resazurin	2.66 µM
CCCCS(=O)(=O)Nc1ccc2[nH]c(C(=O)NCc3ccc(Cl)cc3)c(C)c2c1	MIC90	H37Rv					resazurin	>100 µM
CNC(=S)c1nc2ncccc2n1C	MIC	H37Rv						25 µg/mL
COc1ccc(-c2cn(-c3ccc(OC[C@@]4(C)Cn5cc([N+](=O)[O-])nc5O4)cc3)nn2)cc1	MIC	ss18b non-replicating phase					broth dilution / resazurin	>35 µM
Cc1ccc(/C=C2/SC(c3ccc(C)cc3)N(C(=O)NCCCN3c4ccccc4Sc4ccccc43)C2=O)cc1	inhibition	H37Rv		50 µg/mL			agar	45%
O=C1C(O)C(O)C(O)C(O)C1O	MIC	H37Rv					BACTEC	≥12.8 µg/mL
CC[C@@H](CO)NCCN[C@@H](CC)CO	MIC	H37Rv						6.25 µg/mL
C/C=C\C#CC#C/C=C/C(=O)OC	MIC	H37Rv						50 µg/mL
CCCCCc1ccc(Oc2nc(OC)cc(OC)n2)c(O)c1	MIC90						broth dilution / visual reading	100 µg/mL
COP(=O)(c1ccccc1)N1CCN(C2c3ccccc3-c3ccccc32)CC1	MIC	H37Rv					broth dilution	>24.7 µM
O=C(Oc1ccc(Br)cc1C(=O)Nc1ccc(C(F)(F)F)cc1)c1ccccc1	MIC	53/2009			14 d		broth dilution	1 µM
CCCCCCCC/C=C\CCCCCCCCOCC(O)CO	MIC	H37Rv					BACTEC	128 µg/mL
COc1ccc(C(=O)c2oc3cc4occ(C=C5C(=O)NC(=O)NC5=O)c(=O)c4cc3c2C)cc1	EC90	H37Rv					resazurin	>100 µg/mL
CS(=O)(=O)C12CCCN1C(=O)C1CCCN1C2=O	MIC bound	H37Rv					resazurin	>6.25 µg/mL
CC(C)c1ccc(OCc2cn(-c3ccc(OC[C@@]4(C)Cn5cc([N+](=O)[O-])nc5O4)cc3)nn2)cc1	MIC	H37Rv					broth dilution / resazurin	1.02 µM
O=C1CSC(c2ccc([N+](=O)[O-])cc2)N1C(=O)NCCCN1c2ccccc2Sc2ccccc21	inhibition	H37Rv		25 µg/mL			agar	30%
CN1CCN(Cc2cccc(NC(=O)c3ccc(-c4ccccc4)cc3)c2)CC1	MIC	103471						8 µg/mL
C/C=C(/C)C(=O)OC/C=C\C#CC#C/C=C\C(=O)OC	MIC	H37Rv						25 µg/mL
C=C/C(C)=C/[C@@]1(C)SC(=O)C(C)=C1O	MIC	Erdman						25 µg/mL
C[C@@H]1OC(O[C@H]2C(O[C@H]3CC[C@@]4(C)C(CC[C@]5(C)C4CC=C4C6CC(C)(C)CC[C@]6(C(=O)O)CC[C@]45C)[C@]3(C)CO)OC[C@H](O)[C@@H]2O)[C@H](O)[C@H](O)[C@H]1O	MIC	H37Rv						>1000 µg/mL
COc1ccc2c3c([nH]c2c1)C1CC2C(CC(O)C(OC)C2C(=O)O)CN1CC3	inhibition	H37Rv		12.5 µg/mL			BACTEC	-10%
O=C(/N=C/c1ccc([N+](=O)[O-])cc1)NCCCN1c2ccccc2Sc2ccccc21	inhibition	H37Rv		25 µg/mL			agar	32%
C[C@]1(COc2ccc(N3CCC(Oc4ccc(OC(F)(F)F)cc4)CC3)cc2)Cn2cc([N+](=O)[O-])nc2O1	MIC	H37Rv					broth dilution / resazurin	0.01 µM
O=C(Oc1cc(Cl)ccc1C(=O)Nc1ccc(C(F)(F)F)cc1)c1ccccc1	MIC	331/88 (H37Rv)			21 d		broth dilution	2 µM
O=C1CSC(c2ccccc2)N1C(=O)NCCCN1c2ccccc2Sc2ccccc21	inhibition	H37Rv		50 µg/mL			agar	35%
C[C@]1(COc2ccc(-c3cc(-c4cccc(C(F)(F)F)c4)on3)cc2)Cn2cc([N+](=O)[O-])nc2O1	MIC	ss18b non-replicating phase					broth dilution / resazurin	2.06 µM
Cc1ncc(CO)c(C2NC(C(=O)O)CS2)c1O	MIC bound	H37Rv					BACTEC	>12.5 µg/mL
CC(=O)NC[C@H]1CN(c2cc(F)c(N3CCC(NC(=O)N(C)C)C3)c(F)c2)C(=O)O1	MIC100	H37Rv					resazurin	2.5 µM
COc1ccc(/C=N/C(=O)NCCCN2c3ccccc3Sc3ccccc32)cc1	inhibition	H37Rv		50 µg/mL			agar	40%
CCOC(=O)c1c(N)sc2sc(-c3ccc(Cl)cc3)cc12	MIC	H37Rv						9.3 µM
CC(=O)NC1NCCNC1=O	inhibition	H37Rv		12.5 µg/mL			BACTEC	9%
C/C=C\C#CC#C/C=C\C(=O)OC	MIC	H37Rv						50 µg/mL
Cn1c(C(N)=S)nc2ncccc21	MIC	H37Rv						125 µg/mL
CCN(CC)C(=O)c1cncc(C(N)=O)c1	inhibition	H37Rv		12.5 µg/mL			BACTEC	24%
COc1ccc(/C=N/NC(=O)c2nc3ncccc3n2C)cc1OC	MIC	H37Rv						62 µg/mL
CC(C)c1[nH]nc(C(N)=O)c1N=NN(C)C	inhibition	H37Rv		12.5 µg/mL			BACTEC	27%
Cc1onc(-c2c(F)cccc2F)c1C(=O)N1CCN(c2cc3c(cc2F)c(=O)c(C(=O)O)cn3-c2ccc(F)cc2F)CC1	MIC	ATCC35801						10.01 µM
Cn1c(C(=O)N/N=C\c2ccco2)nc2ncccc21	MIC	H37Rv						125 µg/mL
CS(=O)(=O)NC(=NCCOS(C)(=O)=O)N[N+](=O)[O-]	inhibition	H37Rv		6.25 µg/mL			resazurin	-3%
O=C(Oc1ccc(Cl)cc1C(=O)Nc1ccc(Cl)c(Cl)c1)c1ccccc1	MIC	53/2009			14 d		broth dilution	0.5 µM
Nc1cccc2c1C(=O)c1cccc(NC(=O)c3ccccc3)c1C2=O	inhibition	H37Rv		12.5 µg/mL			BACTEC	-21%
Cn1c(C(N)NO)nc2ncccc21	MIC	H37Rv						250 µg/mL

11 of the rows above, restated:

| SMILES | read-out | strain | changes | tested at | conditions | cells | read by | value |
|---|---|---|---|---|---|---|---|---|
| CCCCS(=O)(=O)Nc1ccc2[nH]c(C(=O)NCc3ccc(Cl)cc3)c(C)c2c1 | MIC90 | H37Rv |  |  |  |  | resazurin | >100 µM |
| CS(=O)(=O)C12CCCN1C(=O)C1CCCN1C2=O | MIC bound | H37Rv |  |  |  |  | resazurin | >6.25 µg/mL |
| CC(=O)NC[C@H]1CN(c2cc(F)c(N3CC4CCSCCC4C3)c(F)c2)C(=O)O1 | MIC100 | H37Rv |  |  |  |  | resazurin | 0.62–1.25 µM |
| CCCOC(=O)CSc1nnc(-c2ccc([N+](=O)[O-])s2)s1 | MIC | H37Rv |  |  |  |  | resazurin | 0.39 µg/mL |
| CNC(=S)c1nc2ncccc2n1C | MIC | H37Rv |  |  |  |  |  | 25 µg/mL |
| CN1CCN(c2cc3c(cc2F)c(=O)c(C(=O)O)cn3-c2ccc(F)cc2F)CC1c1ccccc1 | MIC | ATCC35801 |  |  |  |  |  | 6.34 µM |
| COc1ccc(-c2cn(-c3ccc(OC[C@@]4(C)Cn5cc([N+](=O)[O-])nc5O4)cc3)nn2)cc1 | MIC | ss18b non-replicating phase |  |  |  |  | broth dilution / resazurin | >35 µM |
| CC[C@@H](CO)NCCN[C@@H](CC)CO | MIC | H37Rv |  |  |  |  |  | 6.25 µg/mL |
| O=C(/C=C/c1ccccc1)Nc1ccc(Cn2ccnc2)cc1 | MIC | 103471 |  |  |  |  |  | >16 µg/mL |
| O=C(Nc1ccc(Cn2ccnc2)cc1)c1ccc(Cl)cc1 | MIC | 103471 |  |  |  |  |  | >16 µg/mL |
| CCCCCCCC/C=C\CCCCCCCCOCC(O)CO | MIC | H37Rv |  |  |  |  | BACTEC | 128 µg/mL |

MIC bound comes from a single tested concentration. Percent inhibition refers to the dose given; in toxicity tests it is the harm to the cells. A number after MIC or MFC names an inhibition level or a share of isolates. Two numbers with a dash give a range or band. ECn is the concentration giving n% inhibition of infection, replication or growth. Conditions beyond the fields shown may differ between rows.